Measurements from PubChem BioAssay AID651644 (National Center for Advancing Translational Sciences (NCATS), 2012).
The list shows a part of the results, in another mix than the full data. Active and inactive are the calls of the source. Calls come from the whole dose curve; as a rule, active = well fitted falling curve with a large enough effect; inconclusive = small, poorly fitted or top-dose-only effect; inactive = no such curve, though single readings can be large or run the other way.

experiment: qHTS Assay for Inhibitors of the HIV-1 protein Vpr; note: nearly all actives have a fitted effect of over 50% in size; details: S. pombe RE007 Vpr strain, BacTiter-Glo ATP luminescence, 24 h; at 92.2 µM (top of the series) unless noted
% is set by controls: 0 for no effect and ±100 for the full control effect.

With `CN(C)C(=O)Oc1noc2ccccc12` as the compound, how does the activity change, negative = less growth read?
Its activity change, negative = less growth is inactive: -5%.

For `CC(NC(=O)COC(=O)C(O)(c1ccccc1)c1ccccc1)c1ccccc1` (stereo unspecified), which activity change, negative = less growth is on record?
The activity change, negative = less growth was inactive: -1.98%.

For `Cc1ccccc1OP(=O)(Nc1ccccn1)Oc1ccccc1C`, which activity change, negative = less growth is on record?
Its activity change, negative = less growth is inactive: 12%.

Which activity change, negative = less growth does the source give for `CC(=O)NC(SC(=S)N(CC(C)C)CC(C)C)C(Cl)(Cl)Cl` (stereo unspecified) here?
The activity change, negative = less growth was inactive: 20.2%.

With `Cc1ccc(OP(=O)(Nc2ccccn2)Oc2ccc(C)cc2)cc1` as the compound, how does the activity change, negative = less growth read?
Its activity change, negative = less growth is inactive: -8.92%.

For `COC(=O)c1cc2c(s1)N=C(c1ccccc1)N(C)P2(=O)N1CCOCC1` (stereo unspecified), which activity change, negative = less growth is on record?
The activity change, negative = less growth was inactive: -3.6%.

For `Cc1c([N+](=O)[O-])cc([N+](=O)[O-])c(Br)c1[N+](=O)[O-]`, which activity change, negative = less growth is on record?
The activity change, negative = less growth was inactive: -0.464%.

Which activity change, negative = less growth does the source give for `CCC(=O)N1C2C3N(C(=O)CC)C1C1N(C(=O)CC)C(C(N1C(=O)CC)N3C(=O)CC)N2C(=O)CC` here?
Its activity change, negative = less growth is inactive: 5.08%.

Which activity change, negative = less growth does the source give for `CCN(CC)CCCOC(=O)C(O)(c1ccccc1)C1CCCCC1` (stereo unspecified) here?
Its activity change, negative = less growth is inactive: -5.16%.

For `O=C(OC1CN2CCC1CC2)c1ccccc1` (stereo unspecified), which activity change, negative = less growth is on record?
The activity change, negative = less growth was inactive: 9.33%.

Which activity change, negative = less growth does the source give for `CCOC(=O)c1ccc(NP(C)(=O)Oc2ccc(F)cc2)cc1` (stereo unspecified) here?
Its activity change, negative = less growth is inactive: -1.72%.

With `O=P1(N(CCCl)CCCl)OCCC2CCCCN21` (stereo unspecified) as the compound, how does the activity change, negative = less growth read?
Its activity change, negative = less growth is inactive: 16.3%.

Which activity change, negative = less growth does the source give for `COc1ccc(OP(C)(=O)Nc2ccc(SC(F)(F)F)cc2)cc1` (stereo unspecified) here?
The activity change, negative = less growth was inactive: 0.439%.

Which activity change, negative = less growth does the source give for `O=C(NC1CCS(=O)(=O)C1)NP(=S)(Oc1ccccc1)Oc1ccccc1` (stereo unspecified) here?
Its activity change, negative = less growth is inactive: -8.38%.

With `CCNC(=S)/N=C(\N)N[N+](=O)[O-]` as the compound, how does the activity change, negative = less growth read?
The activity change, negative = less growth was inactive: 3.33%.

With `Cc1ccc(NP(=O)(Oc2cccc(C)c2)Oc2cccc(C)c2)nc1` as the compound, how does the activity change, negative = less growth read?
The activity change, negative = less growth was inactive: 0.08%.

With `c1ccc(-c2nn[nH]n2)c(-c2nn[nH]n2)c1` as the compound, how does the activity change, negative = less growth read?
The activity change, negative = less growth was inactive: 4.91%.

Which activity change, negative = less growth does the source give for `CC(=O)Nc1ccc(Oc2c([N+](=O)[O-])cc([N+](=O)[O-])cc2[N+](=O)[O-])cc1` here?
Its activity change, negative = less growth is inactive: 0.663%.

Which activity change, negative = less growth does the source give for `CC(=O)Nc1ccc([As](=O)(O)O)c(O)c1` here?
Its activity change, negative = less growth is inactive: -11.9%.

With `COC(=O)C1(C)COP(=O)(NCc2ccccc2)OC1` (stereo unspecified) as the compound, how does the activity change, negative = less growth read?
Its activity change, negative = less growth is inactive: -14.1%.

With `CC(=O)c1ccc(N2CC2c2ccncc2)cc1` (stereo unspecified) as the compound, how does the activity change, negative = less growth read?
The activity change, negative = less growth was inactive: 5.65%.

For `N#C/C(=C\c1ccc(N(CCBr)CCBr)cc1)C(N)=O`, which activity change, negative = less growth is on record?
Its activity change, negative = less growth is inactive: -22.4%.

For `C[C@H]1OP(=O)(Oc2ccccc2)C[C@@H]2O[C@@H]21` (stereo partly specified), which activity change, negative = less growth is on record?
The activity change, negative = less growth was inactive: 4.36%.

Which activity change, negative = less growth does the source give for `C[C@@H]1C=CCP(=O)(Oc2ccccc2)O1` (stereo partly specified) here?
The activity change, negative = less growth was inactive: 2.78%.

For `O=C(OCCN1CCN(CCOCc2ccccc2)CC1)C(O)(c1ccccc1)c1ccccc1`, which activity change, negative = less growth is on record?
Its activity change, negative = less growth is inactive: -14.8%.

Which activity change, negative = less growth does the source give for `Cc1ccccc1CN(C)C(=O)COC(=O)C(O)(c1ccccc1)c1ccccc1` here?
The activity change, negative = less growth was inactive: 30.4%.

With `CP(=O)(Nc1ccccc1F)Oc1ccccc1` (stereo unspecified) as the compound, how does the activity change, negative = less growth read?
Its activity change, negative = less growth is inactive: -8.61%.

For `CCc1cc(O)c([N+](=O)[O-])c(C)c1[N+](=O)[O-]`, which activity change, negative = less growth is on record?
The activity change, negative = less growth was inactive: -21.9%.

For `CC(C)c1ccc(OP(C)(=O)Nc2ccc(SC(F)(F)F)cc2)cc1` (stereo unspecified), which activity change, negative = less growth is on record?
The activity change, negative = less growth was inactive: 0.0566%.

Which activity change, negative = less growth does the source give for `CC(C)(C)C(=O)NC(Sc1ccccc1)C(Cl)(Cl)Cl` (stereo unspecified) here?
The activity change, negative = less growth was inactive: 4.69%.

With `CCOc1ccc(C2=NCC(CBr)S2)cc1` (stereo unspecified) as the compound, how does the activity change, negative = less growth read?
The activity change, negative = less growth was inactive: -0.629%.

With `Cc1ccccc1NP(C)(=O)Nc1ccccc1C` as the compound, how does the activity change, negative = less growth read?
The activity change, negative = less growth was inactive: 19.1%.

For `O=[N+]([O-])c1cc([N+](=O)[O-])c(C(F)(F)F)c([N+](=O)[O-])c1O`, which activity change, negative = less growth is on record?
The activity change, negative = less growth was inactive: 0.408%.

With `CP(=O)(Nc1ccc2c(c1)OCCO2)Oc1ccccc1` (stereo unspecified) as the compound, how does the activity change, negative = less growth read?
Its activity change, negative = less growth is inactive: 0.117%.

Which activity change, negative = less growth does the source give for `CCOP(C)(=S)SCC(=O)NC(C)(CC)C(=O)O` (stereo unspecified) here?
The activity change, negative = less growth was inactive: 11.4%.

With `c1nnnn1CCn1cnnn1` as the compound, how does the activity change, negative = less growth read?
Its activity change, negative = less growth is inactive: 7.55%.

With `CP(=O)(Nc1ccc(SC(F)(F)F)cc1)Oc1ccc(F)cc1` (stereo unspecified) as the compound, how does the activity change, negative = less growth read?
The activity change, negative = less growth was inactive: -13.1%.

Which activity change, negative = less growth does the source give for `O=P(Nc1nccs1)(c1ccccc1)c1ccccc1` here?
Its activity change, negative = less growth is inactive: 6.27%.

With `CC(C)C(=O)NC(Sc1ccccc1)C(Cl)(Cl)Cl` (stereo unspecified) as the compound, how does the activity change, negative = less growth read?
The activity change, negative = less growth was inactive: -10.1%.

For `C(Cc1nn[nH]n1)Cc1nn[nH]n1`, which activity change, negative = less growth is on record?
The activity change, negative = less growth was inactive: 7.84%.

For `Nc1ccc([As](=O)(O)c2ccc([N+](=O)[O-])cc2)cc1`, which activity change, negative = less growth is on record?
The activity change, negative = less growth was inactive: 1.02%.

Which activity change, negative = less growth does the source give for `Cc1c(C(c2ccc3c(c2)OCO3)c2c(C)n(C)n(-c3ccccc3)c2=O)c(=O)n(-c2ccccc2)n1C.O=[N+]([O-])c1cc([N+](=O)[O-])c(O)c([N+](=O)[O-])c1` here?
The activity change, negative = less growth was inactive: 18.6%.

For `O=C(OC1CN2CCC1CC2)c1cccc(Cl)c1` (stereo unspecified), which activity change, negative = less growth is on record?
The activity change, negative = less growth was inactive: -3.97%.

Which activity change, negative = less growth does the source give for `O=[N+]([O-])c1ccc(OP2(=O)COCCO2)cc1` (stereo unspecified) here?
The activity change, negative = less growth was inactive: 3.89%.

For `O=[N+]([O-])c1ncn(CCn2cnc([N+](=O)[O-])n2)n1`, which activity change, negative = less growth is on record?
The activity change, negative = less growth was inactive: -0.952%.

Which activity change, negative = less growth does the source give for `O=[N+]([O-])c1ccc(O)c(/C=N/Nc2ccc([N+](=O)[O-])cc2[N+](=O)[O-])c1` here?
The activity change, negative = less growth was inactive: -8.6%.

Which activity change, negative = less growth does the source give for `Cc1cc(-c2cccc3ccccc23)c(C)cn1.O=[N+]([O-])c1cc([N+](=O)[O-])c(O)c([N+](=O)[O-])c1` here?
Its activity change, negative = less growth is inactive: -2.94%.

With `O=[As](O)(c1ccccc1)c1ccc(O)cc1` as the compound, how does the activity change, negative = less growth read?
The activity change, negative = less growth was inactive: -3.48%.

With `C[C@H]1OP(=O)(Oc2ccccc2)[C@H](O)[C@H](O)[C@H]1N=[N+]=[N-]` (stereo partly specified) as the compound, how does the activity change, negative = less growth read?
Its activity change, negative = less growth is inactive: -3.74%.

For `O=P(Nc1nc2ccccc2s1)(c1ccccc1)c1ccccc1`, which activity change, negative = less growth is on record?
Its activity change, negative = less growth is inactive: -10.4%.

For `CN(C)CCOC(=O)C(O)(c1ccccc1)C1CCCCC1` (stereo unspecified), which activity change, negative = less growth is on record?
Its activity change, negative = less growth is inactive: 1.12%.

Which activity change, negative = less growth does the source give for `COc1ccc(NP(C)(=O)Oc2ccccc2OC)cc1` (stereo unspecified) here?
The activity change, negative = less growth was inactive: 2.11%.

Which activity change, negative = less growth does the source give for `COc1ccc(N)c([N+](=O)[O-])c1[N+](=O)[O-]` here?
Its activity change, negative = less growth is inactive: 3.57%.

Which activity change, negative = less growth does the source give for `COc1ccc(OP(C)(=O)Nc2cccc(Br)c2)cc1` (stereo unspecified) here?
The activity change, negative = less growth was inactive: -2.94%.

For `O=P(Nc1ccccn1)(c1ccc(Br)cc1)c1ccc(Br)cc1`, which activity change, negative = less growth is on record?
Its activity change, negative = less growth is inactive: 5.32%.

For `Cc1ccc(OCC(=O)OC2CN3CCC2CC3)cc1` (stereo unspecified), which activity change, negative = less growth is on record?
Its activity change, negative = less growth is inactive: -4.73%.

With `NS(=O)(=O)c1cccc(NC(=O)COC(=O)C(O)(c2ccccc2)c2ccccc2)c1` as the compound, how does the activity change, negative = less growth read?
Its activity change, negative = less growth is inactive: -11.9%.

With `O=P1(Nc2ccc(Br)cn2)COc2ccccc2OC1` as the compound, how does the activity change, negative = less growth read?
Its activity change, negative = less growth is inactive: 8.9%.

For `CCCOc1ccc(NP(C)(=O)Oc2ccc(Cl)cc2)cc1` (stereo unspecified), which activity change, negative = less growth is on record?
The activity change, negative = less growth was inactive: 2.7%.

Which activity change, negative = less growth does the source give for `Nc1cccc([As](=O)(O)c2ccccc2)c1` here?
Its activity change, negative = less growth is inactive: 3.31%.

For `CP(=O)(Nc1ccc(SC(F)(F)F)cc1)Oc1ccccc1` (stereo unspecified), which activity change, negative = less growth is on record?
The activity change, negative = less growth was inactive: 6.05%.
